Results deposited as PubChem BioAssay AID504761 (Drosophila RNAi Screening Center, 2011).
In all, the deposit lists about 22,000 reagents; this is a random part of those with a known target gene and a result. Over the whole deposit, 116 (0.52%) are marked active. 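Calls depend on retest data that are not deposited; infection was ranked per plate without normalising between plates; the unit of the infection score is not given.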 The raw values are shown without normalisation. Not stated in the record: the amount of reagent, the time to read-out.

- Test: 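Insect host genes that dengue virus relies on to spread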 (primary screen)
- Cells: D.Mel-2 cells from Drosophila
- Reagents: long dsRNA against Drosophila genes
- Challenge: infection with dengue virus type 2; dose and infection time not stated
- Measurement: 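Per well on two replicate plates, imaging gave the percent of cells positive for viral envelope protein, ranked by infection, and a nuclear count of cells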
- Reading the numbers: infection score: higher = more virus-infected cells; cell count: higher = more cells in the well
- Active means: 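Low infection ranks in the two replicates (chance level up to 0.065) followed by a retest with a 1.5-fold or larger significant decrease, p below 0.05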
- Calls: active = confirmed: knock-down lowers infection; inactive = not picked or not confirmed

no.	target gene	amplicon	infection score, replicate 1	infection score, replicate 2	cell count, replicate 1	cell count, replicate 2	Call
1	CG42264	DRSC18074	2.09	2.94	6618	6944	inactive
2	CG42264	DRSC18075	13.9	11	5866	5375	inactive
3	CG42264	DRSC28051	4.99	22.2	5950	4944	inactive
4	pes (peste)	DRSC03033	1.54	2.75	6312	6073	inactive
5	pes (peste)	DRSC25954	6.63	2.05	6217	6144	inactive
6	CG31998	DRSC17137	4.87	6.18	5627	5471	inactive
7	CG31998	DRSC17138	3.7		1380	296	inactive
8	CG15535	DRSC15071	7.82	6	6751	2000	inactive
9	CHOp24	DRSC18310	11.8	3.4	6184	6532	inactive
10	CG6425	DRSC16038	2.39	5.62	6232	6834	inactive
11	CG8907	DRSC16453	7.72	11.8	6215	6367	inactive
12	CG8907	DRSC27500	14.3	3.04	5686	6523	inactive
13	CG3184	DRSC18289	17.6	5.78	2366	6873	inactive
14	fend (forked end)	DRSC17601	11.3	3.6	6345	6175	inactive
15	fend (forked end)	DRSC17867	6.34	3.05	6123	6305	inactive
16	Alp5 (Alkaline phosphatase 5)	DRSC14269	5.64	8.97	6118	6590	inactive
17	Alp5 (Alkaline phosphatase 5)	DRSC29539	22.4	7.83	5984	1519	inactive
18	Mhc (Myosin heavy chain)	DRSC03367	4.31	1.14	6213	6574	inactive
19	Mhc (Myosin heavy chain)	DRSC25959	12.6	1.86	6251	6340	inactive
20	Upf1 (Upf1 RNA helicase)	DRSC19667	6.58	2.17	4771	5342	inactive
21	Pp1-87B (Protein phosphatase 1 at 87B)	DRSC16794	13.4	15.8	1369	1364	inactive
22	Pp1-87B (Protein phosphatase 1 at 87B)	DRSC23299	8.87	2.86	5896	6465	inactive
23	Pp1-87B (Protein phosphatase 1 at 87B)	DRSC27290	19.7	14	4878	5165	inactive
24	CG18011	DRSC06697	9.47	7.75	5989	6413	inactive
25	CG18011	DRSC06706	20.5	12.6	6345	6260	inactive
26	Gr22f (Gustatory receptor 22f)	DRSC00076	15.1	10.9	6525	6146	inactive
27	Gr22f (Gustatory receptor 22f)	DRSC26841	1.2	8.28	6318	6583	inactive
28	lin (lines)	DRSC07644	14.7	5.01	4404	1957	inactive
29	lin (lines)	DRSC28074	27.2	21.2	4849	6859	inactive
30	msopa (male-specific opa containing gene)	DRSC23240	0.53	3.35	6963	7343	inactive
31	Shark (SH2 ankyrin repeat kinase)	DRSC07680	12.2	15.7	6372	6279	inactive
32	Shark (SH2 ankyrin repeat kinase)	DRSC28527	14.4	10.1	6165	4892	inactive
33	CG12947	DRSC14575	3.14	1.59	6312	6601	inactive
34	CG8155	DRSC07084	22.2	10.6	5533	6376	inactive
35	CG8155	DRSC21543	2.36	3.1	5930	6485	inactive
36	CG8155	DRSC28386		19	435	4125	inactive
37	CG5639	DRSC15851	4.84	2.5	6555	6628	inactive
38	Hsp60C (Heat shock protein 60C)	DRSC03036	13.8	0.61	5448	6364	inactive
39	Hsp60C (Heat shock protein 60C)	DRSC29438		13.6	298	5275	inactive
40	Gr98d (Gustatory receptor 98d)	DRSC14571	5.25		6894	363	inactive
41	Gr98d (Gustatory receptor 98d)	DRSC24547	2.38	0.83	6601	6274	inactive
42	trx (trithorax)	DRSC17089	6.06	7.23	6350	6558	inactive
43	Sox102F	DRSC17204	2.48	0.9	6456	6474	inactive
44	Sox102F	DRSC25915	1.15	2.6	6287	6421	inactive
45	CycA (Cyclin A)	DRSC09132	1.57	1.22	1274	1226	inactive
46	CycA (Cyclin A)	DRSC11123	23.2	9.96	2712	1135	inactive
47	RfC38 (Replication factor C 38kD subunit)	DRSC29807	8.99	26.9	6295	5904	inactive
48	Der-2 (Derlin-2)	DRSC15021	3.12	0.35	6087	6316	inactive
49	mus302 (mutagen-sensitive 302)	DRSC09905	1.87	2.75	5551	5899	inactive
50	Ankle2	DRSC20105	7.74	8.41	6486	6421	inactive
51	Ankle2	DRSC20106	6.54	7.04	6410	6517	inactive
52	CG12863	DRSC06203	5.11	10.4	6010	6512	inactive
53	pix (pixie)	DRSC10533	3.2	3.71	2967	2156	inactive
54	Pex13 (Peroxin 13)	DRSC06877	16.2	2.09	6207	6208	inactive
55	Phk-3 (Pherokine 3)	DRSC04547	11	16.4	5214	4566	inactive
56	GstD7 (Glutathione S transferase D7)	DRSC16688	1.88	9.36	5640	6283	inactive
57	GstD7 (Glutathione S transferase D7)	DRSC29907	15.5	14.1	5982	6139	inactive
58	CG12290	DRSC14497	2.2	1.44	6319	6522	inactive
59	CG12290	DRSC28328	20.1	2.23	5752	2283	inactive
60	Prp39 (pre-mRNA processing factor 39)	DRSC15133	2.72	5.56	5261	5500	inactive
61	Prp39 (pre-mRNA processing factor 39)	DRSC25186	2.33	6.13	5881	5580	inactive
62	CG8064	DRSC16373	4.19	4.56	5676	5635	inactive
63	c12.1	DRSC18750	5.21	7.71	4470	4304	inactive
64	c12.1	DRSC25556	5.09	14.6	4971	5029	inactive
65	TwdlE (TweedleE)	DRSC02392	4.72	2.67	6460	6563	inactive
66	TwdlE (TweedleE)	DRSC24943	2.16	1.77	6519	6505	inactive
67	CG4362	DRSC15567	4.65	0.63	6446	6461	inactive
68	betaTub97EF (beta-Tubulin at 97EF)	DRSC15666	2.99	1.31	5827	5899	inactive
69	betaTub97EF (beta-Tubulin at 97EF)	DRSC15667	6.07	5.22	6033	6011	inactive
70	betaTub97EF (beta-Tubulin at 97EF)	DRSC15668	6.19	4.12	5716	5973	inactive
71	CG31370	DRSC21453	2.62	9.91	5885	6112	inactive
72	vap (vacuolar peduncle)	DRSC20275	8.74	20.2	6795	5762	inactive
73	Elp1 (Elongator complex protein 1)	DRSC14250	13.5	12.6	5871	5926	inactive
74	Sp1	DRSC17622	2.61	6.06	5826	5542	inactive
75	Sp1	DRSC18717	3.81	3.11	6540	6585	inactive
76	Sp1	DRSC23810	0.58	3	6252	6490	inactive
